This assay concerns the target Botulinum neurotoxin type A2 [1-425] (Clostridium botulinum, UniProt Q45894). As to conditions: pH 7.4.

Amino acid sequences for entries named in this document (tags omitted). Residues count along the entry.
UniProt Q45894, 1-425: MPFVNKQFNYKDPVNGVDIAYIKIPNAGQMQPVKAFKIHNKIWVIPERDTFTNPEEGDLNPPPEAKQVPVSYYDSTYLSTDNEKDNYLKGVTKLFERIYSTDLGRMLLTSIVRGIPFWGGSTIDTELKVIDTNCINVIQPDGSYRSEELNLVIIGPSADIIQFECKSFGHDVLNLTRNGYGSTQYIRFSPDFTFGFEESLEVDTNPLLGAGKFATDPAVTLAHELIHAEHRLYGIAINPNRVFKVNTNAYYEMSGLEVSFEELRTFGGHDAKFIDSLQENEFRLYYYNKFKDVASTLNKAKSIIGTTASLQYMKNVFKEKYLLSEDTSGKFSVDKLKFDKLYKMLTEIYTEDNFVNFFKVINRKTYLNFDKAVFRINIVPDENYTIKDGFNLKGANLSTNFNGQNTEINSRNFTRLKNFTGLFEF

Drawing on BindingDB's records for 17293454, this text covers IC50 for two compounds.

By IC50 is commonly meant the concentration that gives 50% inhibition. A high value points to weaker potency. With `COc1ccc(CCNC(=O)CN(CC(=O)NC2CC2c2ccccc2)C(=O)Cn2c(C(=O)N[C@H]3CCCC[C@@H]3NC(=O)c3cc4ccccc4n3CC(=O)N(CC(=O)NCCc3ccc(OC)cc3)CC(=O)NC3CC3c3ccccc3)cc3ccccc32)cc1` (some centres not stated), half-maximal inhibition (IC50) required 7.6 µM.
Under `CCC1CN(C(=O)C=Cc2ccccc2)CC(=O)N1Cc1ccc(C)cc1` (configuration not stated) stands 12.5 µM.
